The source of these data is paper PMC4171701.

The data set concerns OC[C@H]1O[C@H](O[C@H]2[C@H](O)[C@@H](O)C(O)O[C@@H]2CO)[C@H](O)[C@@H](O)[C@@H]1O. The data set is described as follows: purified protein. To be noted: pH 8.0; 37.0 °C.

Take “MtbMaK (Mycobacterium tuberculosis H37Rv)”: the Km stood at 2490 µM.

A word on the Km: it is the substrate concentration at which the rate is half of its maximum.
